Assay results published in paper PMC9027599, “Secondary Metabolites in Basil, Bio-Insecticide, Inhibition Effect, and In Silico Molecular Docking against Proteolytic Enzymes of the Red Palm Weevil (Rhynchophorus ferrugineus)” (Plants, 2022).

System: R. ferrugineus adults
Conditions: probit analysis, 95% confidence limits in brackets
Procedure: The R. ferrugineus adult and larvae were acquired from an insect breeding lab at King Faisal University’s Date Palm Research Center of Excellence and grown utilizing sugarcane stem long pieces. The extracts activity against larvae was determined by using topical application method with storing larvae at 4–5 °C for 5 min. Previous serial concentrations of extract (10 µL) were applied to the dorsum of each larvae using a hand-operated micro-applicator (Burkard Manufacturing Co., Ltd., Hertfordshire, UK with a 50-ll micro-syringe (MS-N50; Ito Corp., Shizuoka, Japan). Each larva was feeding on 10 cm stem pieces of long sugarcane, with 5 larvae/box with three replicates. After topical administration, larval mortality was determined after 24, 48, 72, and 96 h to determine the LD50. Adults were tested for antifeedant effect determined using ten-centimeter-long sections of sugarcane stem divided into equal longitudinal halves. […]
Finney states that the statistical analysis and probit analysis were conducted using the SPSS 25.0 program (Statistical Package for Social Sciences, Armonk, NY, USA). Chemical components were determined by PCA using SPSS 25.0 program and presented using XLSTAT 2018.1. […] The range of LC50 was calculated with a 95 percent confidence interval using least-squares. […]

dicaffeoyl-tartaric acid [Chicoric acid]
LC50: 1132 (1004–1198) µg/mL
